Results on eleven substances are retold here after PMC8447191 (Bioconjugate Chemistry, 2021).

Strings that start with PEPTIDE1 are HELM notation: dots part the residues, brackets hold end groups and non-standard residues.

The nature of this data set: general procedure: Fmoc solid-phase peptide synthesis; NovaSyn TGR resin (0.22 mmol/g; 0.19 mmol/g for C-PAs); HATU/DIEA (amino acids); PyBOP/HOBt/DIEA (PEG, alkyl moieties, Cys). The following applies: whole synthesis; for isolated yield: synthesis + purification; for isolated yield / crude yield: scale of the general procedure 1.5 g resin, 0.22 mmol/g.

Take Cys-PEG3-E1P47: the isolated mass is 0.018 g and the isolated yield came to 35%.

As for Cys-PEG27-E1P47, the isolated mass was 0.0112 g and the isolated yield worked out at 10.6%.

Turning to Cys-PEG27-E1P47 (C-PAchol precursor), the isolated mass is 0.011 g and the isolated yield was 10%.

Turning to Cys-PEG27-E1P47 (K-PAchol precursor), the isolated mass came to 0.0094 g and the isolated yield was determined as 9.6%.

Substance “PEPTIDE1{W.I.L.E.Y.L.W.K.V.P.F.D.F.W.R.G.V.I.K.[am]}|PEPTIDE2{[Cys(CH2COOChol)].[PEG27]}$PEPTIDE1,PEPTIDE2,19:R3-2:R2$$$V2.0” yielded a crude mass of 0.012 g and a crude yield of 9.2%.

With “PEPTIDE1{W.I.L.E.Y.L.W.K.V.P.F.D.F.W.R.G.V.I.[am]}|PEPTIDE2{[Cys(CH2COOChol)].[PEG27]}$PEPTIDE1,PEPTIDE2,8:R3-2:R2$$$V2.0”, the crude yield is 9.2%.

“PEPTIDE1{W.I.L.E.Y.L.W.K.V.P.F.D.F.W.R.G.V.I.[am]}|PEPTIDE2{[diC18NSuc].[PEG27]}$PEPTIDE1,PEPTIDE2,8:R3-2:R2$$$V2.0”: the isolated mass is 0.027 g and the isolated yield is given as 24%.

Take “PEPTIDE1{[C18NHSuc].[PEG3].W.I.L.E.Y.L.W.K.V.P.F.D.F.W.R.G.V.I.[am]}$$$$V2.0”: the crude mass is given as 0.049 g, the isolated mass was 0.021 g and the isolated yield stood at 27%. For the same substance, the crude yield (yield (synthesis)) came to 63%.

“PEPTIDE1{[Cys(CH2COOChol)].[PEG3].W.I.L.E.Y.L.W.K.V.P.F.D.F.W.R.G.V.I.[am]}$$$$V2.0”: the crude mass came out at 0.018 g and the crude yield is on record as 28%.

“PEPTIDE1{[Cys(CH2COOChol)].[PEG27].W.I.L.E.Y.L.W.K.V.P.F.D.F.W.R.G.V.I.[am]}$$$$V2.0” showed a crude mass of 0.011 g and a crude yield of 9.6%.

As to “PEPTIDE1{[diC18NSuc].[PEG3].W.I.L.E.Y.L.W.K.V.P.F.D.F.W.R.G.V.I.[am]}$$$$V2.0”, the crude mass is on record as 0.042 g, the isolated mass is on record as 0.010 g and the isolated yield amounted to 16%. Moreover, the crude yield (cleavage yield) is 68%.
